PubChem BioAssay AID1259414 – Drosophila RNAi Screening Center, 2018
The deposit covers about 24,000 reagents; shown is an unselected part of those with a known target gene and a result. Of all reagents, about 1,210 (5%) were called active. 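Inactive calls also include excluded dsRNAs with several or no targets, genes unexpressed in JW18, and well A1, regardless of score.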 A plus sign joins genes that one reagent is predicted to hit.

- Purpose: 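Genome-wide screen for host control of endosymbiont load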 (primary screen)
- Cell system: Drosophila JW18 cells infected with Wolbachia
- Knock-down reagent: long dsRNA against Drosophila genes, 0.25 µg dsRNA per well of a 384-well plate
- Duration: 5 days
- Conditions: cells persistently infected with Wolbachia before knock-down; no added drug
- Read-out: 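Imaged fluorescence in situ signal for Wolbachia 23S rRNA per DAPI-counted host cell, given as a robust z-score within each plate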
- Scale: Wolbachia per cell robust z: higher = more Wolbachia per host cell than the plate typical
- Active means: 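Hit when robust z is 1.5 or more, or -1.5 or less, in at least two of three replicates; excludes dsRNAs with several or no targets, genes not expressed in JW18 and well A1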

| target gene | dsRNA | Wolbachia per cell robust z, rep 1 | Wolbachia per cell robust z, rep 2 | Wolbachia per cell robust z, rep 3 | call |
| --- | --- | --- | --- | --- | --- |
| CG32487 | DRSC21745 | 0.462 | -0.802 | -0.262 | inactive |
| CG32487 | DRSC29078 | -2.01 | -2.43 | -1.84 | inactive |
| CG17929 | DRSC15291 | -0.0935 | -6.12 | -0.116 | inactive |
| CG15353 | DRSC00383 | -0.619 | -0.215 | 0.222 | inactive |
| CG15353 | DRSC24727 | 1.78 | -0.304 | -0.02 | inactive |
| CG11857 | DRSC14411 | 0.843 | -1.49 | 0.878 | inactive |
| Sr-CI | DRSC00790 | 0.217 | -1.75 | -1.1 | inactive |
| Sr-CI | DRSC23942 | 0.556 | 0.342 | 0.44 | inactive |
| CG42353 + CG42354 | DRSC29165 | 0.668 | -0.22 | -0.466 | inactive |
| Cda9 | DRSC06593 | 0.736 | 0.508 | -0.0812 | inactive |
| fuss | DRSC17200 | -0.743 | 0.344 | -0.505 | inactive |
| fuss | DRSC21452 | -1.02 | 0.565 | -0.0637 | inactive |
| Grip84 | DRSC20248 | 1.11 | 0.687 | -1.4 | inactive |
| Grip84 | DRSC26202 | -0.343 | 0.237 | -0.675 | inactive |
| CG13607 | DRSC14610 | 0.412 | -1.31 | -0.493 | inactive |
| CG12817 | DRSC14555 | 0.222 | -7.4 | -5.29 | inactive |
| Sp1 | DRSC17622 | 0.358 | -0.293 | 0.893 | inactive |
| Sp1 | DRSC18717 | 0.129 | -0.702 | 0.0434 | inactive |
| Sp1 | DRSC23810 | 0.539 | -0.933 | 0.152 | inactive |
| Or83a + CG1172 | DRSC12357 | 0.691 | 0.238 | -0.0932 | inactive |
| Acp95EF + Spase22-23 | DRSC14102 | 0.363 | -2.76 | -0.234 | inactive |
| ab | DRSC01162 | 0.486 | 0.833 | 0.329 | inactive |
| ab | DRSC23151 | -0.234 | -2.17 | -1.09 | inactive |
| ab | DRSC23179 | 0.307 | 1.13 | 0.328 | inactive |
| mri | DRSC08259 | -1.77 | 0.519 | -4.66 | active |
| mri | DRSC27787 | 0.36 | 0.131 | 0.431 | inactive |
| E(Pc) | DRSC05281 | 0.206 | 0.93 | 1.16 | inactive |
| E(Pc) | DRSC07408 | 2.41 | 2.53 | 1.63 | active |
| Prx2 | DRSC20256 | 1.39 | 0.869 | 1.23 | inactive |
| Prx2 | DRSC29996 | 0.691 | 0.525 | 0.483 | inactive |
| Eig71Eb | DRSC11149 | 0.408 | -0.985 | -1.41 | inactive |
| fray | DRSC16950 | 0.384 | 0.636 | 0.266 | inactive |
| CG13051 | DRSC09932 | -0.26 | -2.28 | 1.37 | inactive |
| CG13051 | DRSC41498 | -0.986 | -0.222 | 0.329 | inactive |
| Gr23a | DRSC27488 | 1.22 | -1.02 | -0.491 | inactive |
| dmpd | DRSC06092 | 0.796 | -1.75 | 0.448 | inactive |
| loopin-1 | DRSC06888 | -0.681 | -0.997 | 0.0432 | inactive |
| loopin-1 | DRSC24892 | -2.25 | 0.716 | -1.28 | inactive |
| CG14356 | DRSC14819 | -1.93 | -0.686 | -0.656 | inactive |
| CG14309 | DRSC14788 | 0.093 | -0.567 | 0.5 | inactive |
| Bruce | DRSC16015 | -2.05 | -5.14 | 0.101 | active |
| usp | DRSC18847 | 0.0164 | 0.846 | -1.93 | inactive |
| usp | DRSC24447 | -0.993 | 1.2 | 0.333 | inactive |
| CG34382 | DRSC10166 | -3.19 | -1.57 | -0.631 | inactive |
| CG34382 | DRSC10167 | 0.136 | -0.163 | 0.705 | inactive |
| Spn88Ea | DRSC17061 | 0.578 | -0.504 | 0.188 | inactive |
| Spn88Ea | DRSC27907 | 1.3 | -0.646 | 0.293 | inactive |
| alt | DRSC15315 | 0.347 | -3.42 | -5.93 | active |
| alt | DRSC28347 | -0.334 | 0.0563 | 0.149 | inactive |
| Cyp301a1 | DRSC07365 | -0.463 | -0.221 | 0.182 | inactive |
| CG14856 | DRSC14980 | -0.188 | -0.329 | -1.03 | inactive |
| CG2811 | DRSC04318 | -0.251 | 0.561 | -0.268 | inactive |
| CG10431 | DRSC02055 | -0.441 | 0.683 | 0.352 | inactive |
| ND-24L | DRSC10650 | -0.133 | 0.245 | -0.419 | inactive |
| ND-24L | DRSC28201 | -1.05 | -0.117 | -1.34 | inactive |
| Cyp12d1-d + Cyp12d1-p | DRSC21507 | -1.3 | -1.1 | -1.36 | inactive |
| Cp7Fa | DRSC18032 | -0.514 | -2.78 | -0.849 | inactive |
| Cp7Fa | DRSC18033 | -0.576 | 0.719 | -0.729 | inactive |
| Cp7Fa | DRSC24279 | 0.373 | -0.888 | -0.295 | inactive |
| CG9330 | DRSC11066 | -0.207 | 0.00875 | -0.751 | inactive |
| CG9330 | DRSC29449 | 0.975 | 0.167 | -0.373 | inactive |
| a | DRSC04668 | 0.291 | 1.13 | -2.27 | inactive |
| a | DRSC27708 | -0.204 | 1.5 | 1.1 | inactive |
| Eig71Ed | DRSC11151 | 0.46 | -0.199 | 0.0976 | inactive |
| pds5 | DRSC06670 | 0.893 | 2.19 | 0.967 | inactive |
| csw | DRSC18756 | 0.414 | 1.79 | 1.16 | inactive |
| csw | DRSC23326 | -0.0201 | 0.123 | -1.15 | inactive |
| csw | DRSC36600 | -0.307 | -0.673 | -1.46 | inactive |
| CG17260 | DRSC00497 | 0.137 | 0.636 | -0.482 | inactive |
| CG17260 | DRSC29415 | -0.508 | -0.85 | 0.212 | inactive |
| cass | DRSC01850 | 1.64 | 0.604 | 0.479 | inactive |
| cass | DRSC29928 | -3.79 | -1.78 | 0.615 | active |
| kdn | DRSC18328 | -0.0668 | 0.327 | -0.00772 | inactive |
| CG13643 | DRSC14641 | 0.522 | -2.21 | 0.873 | inactive |
| CG13643 | DRSC14642 | 0.274 | -2.42 | -1.99 | active |
| CG13643 | DRSC28349 | -0.786 | -1.56 | -0.661 | inactive |
| Bx42 | DRSC17743 | 4.15 | 5.09 | 10.1 | active |
| Bx42 | DRSC27666 | 0.761 | -0.978 | 1.32 | inactive |
| unc-45 | DRSC15449 | -1.89 | 0.0199 | 0.163 | inactive |
| CG1801 | DRSC20556 | -0.713 | -0.883 | -0.24 | inactive |
| CG4452 | DRSC10422 | 1.25 | 0.0522 | -0.574 | inactive |
| CG12011 | DRSC08219 | -1.26 | -0.193 | -0.217 | inactive |
| CG12011 | DRSC27315 | -0.517 | 0.71 | 0.172 | inactive |
| ox | DRSC07520 | -1.73 | -3.93 | -0.477 | active |
| mRpL40 | DRSC15749 | 1.02 | -3.53 | 0.948 | inactive |
| mRpL40 | DRSC27264 | -0.104 | 0.36 | 0.503 | inactive |
| dup | DRSC07088 | 3.28 | 3.49 | 2.61 | active |

Reformatted: results already given
target gene,dsRNA,"Wolbachia per cell robust z, rep 1","Wolbachia per cell robust z, rep 2","Wolbachia per cell robust z, rep 3",call
ND-24L,DRSC28201,-1.05,-0.117,-1.34,inactive
Cyp12d1-d + Cyp12d1-p,DRSC21507,-1.3,-1.1,-1.36,inactive
Cp7Fa,DRSC18032,-0.514,-2.78,-0.849,inactive
Cp7Fa,DRSC18033,-0.576,0.719,-0.729,inactive
Cp7Fa,DRSC24279,0.373,-0.888,-0.295,inactive
CG9330,DRSC11066,-0.207,0.00875,-0.751,inactive
CG9330,DRSC29449,0.975,0.167,-0.373,inactive
